Source: paper PMC6328579, “Post-exposure immunotherapy for two ebolaviruses and Marburg virus in nonhuman primates” (2019)

Test system: EBOV GPΔTM Mayinga; residues 18–650 (wild type), Ebola virus (EBOV), Mayinga, Q05320 18-650
Assay: SEC; size-exclusion HPLC, Superose 6 10/300 column; purified EBOV GPΔTM

## EBOV GPΔTM Mayinga; residues 18–650 (wild type)
  stoichiometry N: 3
